A mixed list of measured activities; the numbers were collected in NIAID ChemDB.

Common to all: growth or infection tests; species: Candida albicans; measure: MIC

An empty or dashed field is not shown. Lines come from different laboratories, so protocols vary.

smiles,strain,read by,setting,value
C[C@@H](n1cnc2c(Cl)cccc2c1=O)[C@](O)(Cn1cncn1)c1ccc(F)cc1F,60 strains,,,0.15 µg/mL
CC(C)S(=O)(=O)N1CCN(c2cnn(-c3cc(F)cc(F)c3)c(=O)c2OC2CCC(F)C2)CC1,C-43,broth dilution,,0.125 µg/mL
CNc1ccc(C(=O)CC(O)CCC(C)C2OC(=O)CC(O)CC(=O)CC(O)CC(O)CC(O)CC(O)CC3(O)CC(O)C(C(=O)O)C(CC(O[C@@H]4O[C@H](C)[C@@H](O)[C@H](N)[C@@H]4O)/C=C/C=C/C=C/C=C\C=C/C=C/C=C/C2C)O3)cc1,73,,,0.06 µg/mL
COc1ccc2c(C)c(/C(=N/O)c3ccc(Cl)cc3)oc2c1,Clinical isolate,,,12.5 µg/mL
CCC(C)CC(C)CCCCCCCCC(=O)N[C@H]1C[C@@H](O)[C@H](NCCN)NC(=O)[C@@H]2[C@@H](O)CCN2C(=O)[C@H]([C@H](O)CCN)NC(=O)[C@H]([C@H](O)[C@@H](O)c2ccc(O)cc2)NC(=O)[C@@H]2C[C@@H](O)CN2C(=O)[C@H]([C@@H](C)O)NC1=O,C697,broth dilution,,0.06 µg/mL
CN(CCCC#CC(C)(C)C)c1cccc2c1CCC(=O)N2,Clinical isolate 24,,,31.25 µg/mL
C[C@@H](n1cnc2cc(N3CCOC3=O)ccc2c1=O)[C@](O)(Cn1cncn1)c1ccc(F)cc1F,60 strains,,,1.25 µg/mL
Cc1c(Cl)[n+](=O)c2cc(Cl)ccc2n1[O-],Clinical isolate 8,,,15.6 µg/mL
CCCCCC(CCCCC)c1ccc(N2CCN(c3ccc(C(=O)N[C@H]4CCCNC(=O)C5C[C@H](N)CN5C(=O)C(C(C)O)NC(=O)C(CCc5ccc(O)cc5)NC(=O)C5C[C@@H](O)CN5C(=O)C(C(C)O)NC4=O)cc3)CC2)cc1,ATCC 62376,,,0.78 µg/mL
Cc1cccc2ncn([C@H](C)[C@](O)(Cn3cncn3)c3ccc(F)cc3F)c(=O)c12,76 strains,,,10 µg/mL
Clc1ccc(C(Cn2ccnc2)OC/C=C/c2ccccc2)c(Cl)c1,CDCB385,,,128 µg/mL
Cc1c(O)cccc1C(=O)N[C@@H](CSc1ccccc1)[C@H](O)CN1C[C@H]2CCCC[C@H]2C[C@H]1C(=O)NC(C)(C)C,I153A,,,64 µg/mL
O/N=C(\c1ccc(Cl)cc1)c1oc2ccc(Cl)cc2c1Cn1cncn1,Clinical isolate,,,25 µg/mL
CC(=O)N1CCN(c2ccc(OC[C@H]3CO[C@](Cn4ccnc4)(c4ccc(Cl)cc4Cl)O3)cc2)CC1,10 isolates,broth dilution,pH 7,0.03 µg/mL
O[C@](Cn1cncn1)(Cn1cnc(/C=C/c2ccc(OCC(F)(F)C(F)F)cc2)n1)c1ccc(F)cc1F,Isolate 015-13,,,0.12 µg/mL
CNc1ccc(C(=O)CC(O)CCC(C)C2OC(=O)CC(O)CC(=O)CC(O)CC(O)CC(O)CC(O)CC3(O)CC(O)C(C(=O)N4CCCCC4)C(CC(O[C@@H]4O[C@H](C)[C@@H](O)[C@H](N)[C@@H]4O)/C=C/C=C/C=C/C=C\C=C/C=C/C=C/C2C)O3)cc1,200,,,0.06 µg/mL
CCCCCOc1ccc(-c2ccc(-c3ccc(C(=O)N[C@H]4CCCNC(=O)C5[C@@H](O)[C@@H](O)N5C(=O)C(C(C)O)NC(=O)C(CCc5ccc(O)cc5)NC(=O)C5C[C@@H](O)CN5C(=O)C(C(C)O)NC4=O)cc3)cc2)cc1,ATCC CCH442,,,0.1 µg/mL
C[C@@H](n1cnc2cc(N3CCOCC3)ccc2c1=O)[C@](O)(Cn1cncn1)c1ccc(F)cc1F,76 strains,,,0.31 µg/mL
CC(C)(C)c1ccc(COC(Cn2ccnc2)c2ccc(Cl)cc2)cc1,CA2,,,128 µg/mL
Nc1[nH]c(=O)ncc1F,10 isolates,broth dilution,pH 6,0.5 µg/mL
C[C@H](n1cnc2cc(Cl)ccc2c1=O)[C@](O)(Cn1cncn1)c1ccc(F)cc1F,406 strains,,,1.25 µg/mL
CCC(C)n1ncn(-c2ccc(N3CCN(c4ccc(OC[C@H]5CO[C@](Cn6cncn6)(c6ccc(Cl)cc6Cl)O5)cc4)CC3)cc2)c1=O,10 isolates,broth dilution,pH 4,0.03 µg/mL
CCCCCC12CCC(C(=O)N[C@H]3CCCNC(=O)C4C[C@H](N)CN4C(=O)C(C(C)O)NC(=O)C(CCc4ccc(O)cc4)NC(=O)C4C[C@@H](O)CN4C(=O)C(C(C)O)NC3=O)(CC1)CC2,ATCC 10231,,,3.12 µg/mL
CC(C)(C)c1ccc(COC(Cn2ccnc2)c2ccc(Cl)cc2Cl)cc1,Y0109,,,>128 µg/mL
O/N=C(\c1ccccc1)c1oc2ccc(Cl)cc2c1Cn1ccnc1,Clinical isolate,,,25 µg/mL
Cc1ccc(C(Cn2ccnc2)OCc2ccc(C(C)(C)C)cc2)cc1,Y0109,,,>128 µg/mL
CNc1ccc(C(=O)CC(O)CCC(C)C2OC(=O)CC(O)CC(=O)CC(O)CC(O)CC(O)CC(O)CC3(O)CC(O)C(C(=O)N4CCN(CCO)CC4)C(CC(O[C@@H]4O[C@H](C)[C@@H](O)[C@H](NC(=O)CN5CCN(C)CC5)[C@@H]4O)/C=C/C=C/C=C/C=C\C=C/C=C/C=C/C2C)O3)cc1,73,,,0.06 µg/mL
C[C@H]1[C@H](O)[C@@H](C)/C=C/C=C/C=C/C=C/C=C/C=C/C=C/[C@H](O[C@@H]2O[C@H](C)[C@@H](O)[C@H](N)[C@@H]2O)C[C@@H]2O[C@](O)(C[C@@H](O)C[C@@H](O)CC[C@H](O)[C@@H](O)C[C@@H](O)CC(=O)O[C@H]1C)C[C@H](O)[C@H]2C(=O)O,ATCC64552,,,1 µg/mL
Cc1ccc(C(Cn2ccnc2)OCc2cccc3ccccc23)cc1,3M,,,>128 µg/mL
CCCCCOc1ccc(-c2ccc(-c3ccc(C(=O)N[C@H]4CCCNC(=O)C5[C@H](N)CN5C(=O)C(C(C)O)NC(=O)C(CCc5ccc(O)cc5)NC(=O)C5C[C@@H](O)CN5C(=O)C(C(C)O)NC4=O)cc3)cc2)cc1,ATCC 10231,,,0.78 µg/mL
OC(Cn1cncn1)(Cn1cncn1)c1ccc(F)cc1F,406 strains,,,2.5 µg/mL
O/N=C(\c1ccccc1)c1oc2ccccc2c1Cn1cncn1,Clinical isolate,,,12.5 µg/mL
CCCCCNC(=O)C1C(O)CC2(O)CC(O)CC(O)CC(O)CC(O)CC(=O)CC(O)CC(=O)OC(C(C)CCC(O)CC(=O)c3ccc(NC)cc3)C(C)/C=C/C=C/C=C\C=C/C=C/C=C/C=C/C(O[C@@H]3O[C@H](C)[C@@H](O)[C@H](N)[C@@H]3O)CC1O2,200,,,0.24 µg/mL
CCCCCCCCOc1ccc(N2CCN(c3ccc(C(=O)N[C@H]4CCCNC(=O)C5C[C@H](N)CN5C(=O)C(C(C)O)NC(=O)C(Cc5ccc(CO)cc5)NC(=O)C5CCCN5C(=O)C(C(C)O)NC4=O)cc3)CC2)cc1,ATCC CCH442,,,1.56 µg/mL
CC[C@@H]([C@H](C)O)n1ncn(-c2ccc(N3CCN(c4ccc(OC[C@@H]5CO[C@@](Cn6cncn6)(c6ccc(F)cc6F)C5)cc4)CC3)cc2)c1=O,10 isolates,broth dilution,pH 5,0.03 µg/mL
CCOc1cc2c(cc1F)n([O-])c(C)c(Cl)[n+]2=O,Clinical isolate 19,,,15.6 µg/mL
Cc1ccc(C(Cn2ccnc2)OC/C=C/c2ccccc2)cc1,5M,,,>128 µg/mL
Cc1c(Sc2ccccc2)[n+](=O)c2cc(Cl)ccc2n1[O-],Clinical isolate 18,,,31.25 µg/mL
Clc1ccc(C(Cn2ccnc2)OCc2ccc(-c3ccccc3)cc2)cc1,CA2,,,>128 µg/mL

4 of the rows above, restated:

smiles	strain	read by	setting	value
Nc1[nH]c(=O)ncc1F	10 isolates	broth dilution	pH 6	0.5 µg/mL
CCCCCC12CCC(C(=O)N[C@H]3CCCNC(=O)C4C[C@H](N)CN4C(=O)C(C(C)O)NC(=O)C(CCc4ccc(O)cc4)NC(=O)C4C[C@@H](O)CN4C(=O)C(C(C)O)NC3=O)(CC1)CC2	ATCC 10231			3.12 µg/mL
C[C@@H](n1cnc2c(Cl)cccc2c1=O)[C@](O)(Cn1cncn1)c1ccc(F)cc1F	60 strains			0.15 µg/mL
CC(=O)N1CCN(c2ccc(OC[C@H]3CO[C@](Cn4ccnc4)(c4ccc(Cl)cc4Cl)O3)cc2)CC1	10 isolates	broth dilution	pH 7	0.03 µg/mL